According to patent US20190106463A1:

Biological target: recombinant human integrin αvβ3 extracellular domains (R&D Systems) (human) (UniProt P06756)

MBP-D1D5 Invasin D911A
EC50: > 1000 nM
